The assay deals with H3K27me3 peptide. The assay is described as follows: ITC. A general note: In ITC the heat of successive injections is recorded.

Regarding MBP-BP1^ΔIDR1 (domain or fragment), the Kd – broadly, the concentration at which binding is half-saturated – turned out to be 15.6 µM.

Source of the values: publication PMC10926671, “Liquid–liquid phase separation of H3K27me3 reader BP1 regulates transcriptional repression” (2024).
